Reference: article PMC9225179
Construct, isoform or probe ends are uncertain for at least one entry.

Tested on: TBP (TATA-binding protein) + TFIIB (PcIIB) + TFIIF + RNA polymerase II core enzyme
Test: EMSA
Settings: TFIIF 20 or 40 ng, RNAPII 100 ng, complex dissociated by anti-CTD antibody 8WG16 (printed SWG16); recombinant protein; protein details: His; label: 5' 32P

“GGCTATAAAAGGGGGTGGGGAGGACTTCCCCCCGATATTTTCCCCCACCCC (double strand) [Ad-MLP TATA box probe]”: binds.
